{
  "source": "paper PMC10471735",
  "assay_in_all_cases": "ITC",
  "key": {"[1]": {"molecular_target": "MIC2 TSR6 (597–651) V623A (Toxoplasma gondii)"}, "[2]": {"molecular_target": "MIC2 TSR6 (597–651) H620A (Toxoplasma gondii)"}, "[3]": {"molecular_target": "MIC2 TSR6 (597–651) S605 mutant (Toxoplasma gondii)"}, "[4]": {"molecular_target": "MIC2 TSR6 (597–651) T636A (Toxoplasma gondii)"}, "[5]": {"molecular_target": "MIC2 TSR6 (597–651) F637A (Toxoplasma gondii)"}},
  "data": [
    {"substance": "MIC2-associated protein (M2AP) core β-domain, residues 47–228, N127R, S177N (domain or fragment)", "values": [
      {"measurement": "fold decrease in affinity against WT TSR6", "setting": "[1]", "value": 3, "unit": "fold"},
      {"measurement": "fold decrease in binding against WT TSR6", "setting": "[2]", "value": "> 5000", "unit": "fold"},
      {"measurement": "fold decrease in affinity against WT TSR6", "setting": "[3]", "value": 2, "unit": "fold"},
      {"measurement": "fold decrease in affinity against WT TSR6", "setting": "[4]", "value": 10, "unit": "fold"},
      {"measurement": "fold decrease in affinity against WT TSR6", "setting": "[5]", "value": 4, "unit": "fold"}
    ]}
  ]
}
